Pooled drug test results. Numbers come from NIAID ChemDB, via PubChem.

Common to all: target-level tests; species: Hepatitis C virus; protein: RNA-dependent RNA polymerase; endpoint: IC50

ICn is the concentration giving n% inhibition. Rows are shuffled and stem from different studies. a–b is a range or a potency band.

compound | result
CO[C@@H]1[C@H](OP([O-])(=S)OC[C@@H]2C[C@@H](O)[C@H](n3ccc(N)nc3=O)O2)[C@@H](COP(=O)(O)O)O[C@H]1n1cnc2c(=O)[nH]c(N)nc21 | 50 µM
CC(C)C[C@@]1(C(=O)OC(C)(C)C)C=C(C(N)=O)[C@H](c2nccs2)N1C(=O)c1ccc(C(C)(C)C)c(Br)c1 | <50 µM
COc1cc(C(=O)N2[C@@H](c3nccs3)[C@](C)(C#N)C[C@@]2(CC(C)C)C(=O)O)ccc1C(C)(C)C | <10 µM
CC(C)C[C@@]1(C(=O)O)C=C(C(=O)NCCC(=O)O)[C@H](c2nccs2)N1C(=O)c1ccc(C(C)(C)C)cc1 | <50 µM
CC(C)C[C@@]1(C(=O)O)C[C@@H](c2nc3ccccc3o2)[C@H](c2nccs2)N1C(=O)c1ccc(C(C)(C)C)c(Br)c1 | <50 µM
CC(C)C[C@@]1(C(=O)O)C=C(C(N)=O)[C@H](c2nccs2)N1C(=O)c1ccc(C(C)(C)C)cc1 | <50 µM
Cc1ccc(C(=O)NCCCn2ccnc2)c(Nc2ccc3cn[nH]c3c2)n1 | <1 µg/mL
C[N+]1(C)CCN(/N=C\c2ccc(O)c(O)c2)CC1 | >400 µM
COc1cc(C(=O)N2[C@@H](c3cscn3)[C@H](C#N)C[C@@]2(CC(C)C)C(=O)O)ccc1C(C)(C)C | <10 µM
CN1CCN(/N=C\c2ccc(O)c(O)c2O)CC1 | 30–40 µM
O=C(N[C@H](C(=O)O)c1ccccc1)c1cnn2c(C3CCCCC3)c(-c3ccc(F)cc3)cnc12 | <1 µM
COc1cc(C(=O)N2[C@@H](c3cscn3)[C@@H](C#N)C[C@@]2(CC(C)C)C(=O)O)ccc1C(C)(C)C | <10 µM
Cc1ccc(C(=O)NC(C)C)c(Nc2ccc3[nH]ncc3c2)n1 | <1 µg/mL
CC(C)C[C@@]1(C(=O)O)C[C@@H](c2ncns2)[C@H](c2nccs2)N1C(=O)c1ccc(C(C)(C)C)cc1 | <50 µM
O=C(O)[C@H](Cc1ccccc1)N(C(=O)c1ccc(-c2ccc(Cl)cc2Cl)o1)C(=O)c1ccc(Cl)cc1Cl | <5 µM
CC(C)C[C@@]1(C(=O)O)C[C@@H](c2ncn(C)n2)[C@H](c2nccs2)N1C(=O)c1ccc(C(C)(C)C)cc1 | <50 µM
O=C(O)c1cnn2c(-c3ccc(Oc4ccccc4)cc3)c(-c3ccccc3)cnc12 | >10 µM
CC(C)C[C@@]1(C(=O)O)C=C(C(=O)NCc2ccccc2)[C@H](c2nccs2)N1C(=O)c1ccc(C(C)(C)C)cc1 | <50 µM
O=C(O)C(Cc1ccccc1)N(Cc1ccc(-c2ccc(Cl)s2)s1)C(=O)c1ccc(Cl)cc1Cl | <5 µM
O=C(O)c1cc2nc(-c3cccc(Oc4ccccc4)c3)c(-c3ccccc3)cn2n1 | >10 µM
Cc1ccc(C(=O)NC2CCC(O)CC2)c(Nc2ccc3[nH]ncc3c2)n1 | <0.1 µg/mL
Cc1cc(C(=O)N2[C@@H](c3nccs3)[C@H](C#N)C[C@@]2(CC(C)C)C(=O)O)ccc1C(C)(C)C | <10 µM
CC(C)C[C@@]1(C(=O)O)C[C@H](c2ncn[nH]2)[C@H](c2nccs2)N1C(=O)c1ccc(C(C)(C)C)cc1 | <50 µM
CC(C)C[C@@]1(C(=O)O)C=C(C(=O)NCC(=O)O)[C@H](c2nccs2)N1C(=O)c1ccc(C(C)(C)C)cc1 | <50 µM
O=C(O)c1cccc(-c2ccc(CN(C(=O)c3ccc(Cl)cc3Cl)C(Cc3ccccc3)C(=O)O)s2)c1 | <5 µM
CNC(=O)c1ccc(C)nc1Nc1ccc2cn[nH]c2c1 | ~0.1 µg/mL
O=C(O)[C@@H](Cc1ccccc1)N(Cc1cccs1)C(=O)c1ccc(Cl)cc1Cl | <5 µM
CC(C)C[C@@]1(C(=O)O)C[C@@H](C#N)[C@H](c2nccs2)N1C(=O)c1ccc(C(C)(C)C)c(Cl)c1 | <10 µM
COc1cc(C(=O)N2[C@@H](c3nccs3)[C@@H](c3nsc(C)n3)C[C@@]2(CC(C)C)C(=O)O)ccc1C(C)(C)C | <50 µM
O=C(O)[C@H](Cc1ccccc1)N(Cc1cnc(N2CCN(c3ccccc3)CC2)s1)C(=O)c1ccc(Cl)cc1Cl | 5–20 µM
C[N+]1(C)CCN(/N=C\c2ccc(O)c(O)c2O)CC1 | 30–40 µM
O=C(O)C[C@H](Cc1ccccc1)N(Cc1ccc(-c2cccc(C(F)(F)F)c2)o1)C(=O)c1ccc(Cl)cc1Cl | <5 µM
CC(C)C[C@@]1(C(=O)O)C[C@H](c2ncno2)[C@H](c2nc3ccccc3s2)N1C(=O)c1ccc(C(C)(C)C)cc1 | <50 µM
CC(C)C[C@@]1(C(=O)O)C=C(C(=O)NCC#N)[C@H](c2nccs2)N1C(=O)c1ccc(C(C)(C)C)cc1 | <50 µM
Cc1onc(-c2c(Cl)cccc2Cl)c1CN(C(=O)c1ccc(Cl)cc1Cl)[C@@H](Cc1ccccc1)C(=O)O | <5 µM

5 of the rows above, restated:

compound	result
CC(C)C[C@@]1(C(=O)O)C[C@@H](c2nc3ccccc3o2)[C@H](c2nccs2)N1C(=O)c1ccc(C(C)(C)C)c(Br)c1	<50 µM
CC(C)C[C@@]1(C(=O)O)C[C@H](c2ncno2)[C@H](c2nc3ccccc3s2)N1C(=O)c1ccc(C(C)(C)C)cc1	<50 µM
C[N+]1(C)CCN(/N=C\c2ccc(O)c(O)c2O)CC1	30–40 µM
O=C(O)[C@H](Cc1ccccc1)N(C(=O)c1ccc(-c2ccc(Cl)cc2Cl)o1)C(=O)c1ccc(Cl)cc1Cl	<5 µM
C[N+]1(C)CCN(/N=C\c2ccc(O)c(O)c2)CC1	>400 µM